# The exact form of at least one protein or probe is not confirmed. For some of these results: A weaker result is weaker than the reference pair of the same experiment. For some of these results: At least one verdict was read from the data and is not stated in words by the source. Protein sequences can lack the tags named with them.
# Experiments:
# [1] = target: T1, CrgA (Pseudomonas aeruginosa SJTD-1) (UniProt Q9I4D7); assay: EMSA; conditions: EMSA: 20 mM Tris-HCl, 50 mM NaCl, 1 mM DTT, 0.1 mM EDTA, pH 7.5, 37 C 30 min, 4 pmol DNA in 20 uL, 8% native PAGE, footprinting at 25 C, recombinant protein, label: 5'-FAM on strand 2
# T1 sequence (looked up, limits assumed): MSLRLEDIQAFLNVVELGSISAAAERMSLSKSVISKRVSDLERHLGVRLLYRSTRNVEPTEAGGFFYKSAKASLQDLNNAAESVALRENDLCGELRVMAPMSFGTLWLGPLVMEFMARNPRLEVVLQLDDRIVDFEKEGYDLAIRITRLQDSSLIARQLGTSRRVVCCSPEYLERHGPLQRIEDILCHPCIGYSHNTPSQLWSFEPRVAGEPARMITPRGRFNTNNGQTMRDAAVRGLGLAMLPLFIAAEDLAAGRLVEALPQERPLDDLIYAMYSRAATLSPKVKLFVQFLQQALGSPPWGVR
# [2] = target: T1, CrgA (Pseudomonas aeruginosa SJTD-1); assay: DNase I footprinting; conditions: 8:1 protein/DNA, bs1 and bs2 protected; recombinant protein; label: 5'-FAM on reverse strand; probe letters rebuilt from the primers and the genome
# [3] = acetyl CoA 20-500 pmol, no release
# [4] = hexadecyl (palmitoyl) CoA 20-500 pmol, releases binding
# [5] = octadecyl CoA (legend: oleyl CoA) 20-500 pmol, releases binding
sequence,measurement,setting,value
AGGACAATTGTCAGACAATCTAACAGGGATGGGGCAGGCCGGCCAAGGGAGATAAATACGAGGACTTCCC (double strand) [alkB2-b1],binding result,[1]; [3],binds
same,binding result,[1]; [4],binds more weakly
same,binding result,[1]; [5],binds more weakly
GCTTCCCGGCGAAGCGGCGGACAGAACGAAGGTTGGGATGGGGCAGGCCGGCCAAGGGAGGACAATTGTC (double strand) [alkB2-b3],binding result,[1]; 8:1 protein/DNA,binds
same,binding result,[1]; [3],binds
same,binding result,[1]; [4],binds more weakly
same,binding result,[1]; [5],binds more weakly
AGGACAATTGTCAGACAATCTAACAACAGAACGAAGATAAATACGAGGACTTCCC (double strand) [alkB2-b5],binding result,[1],binds more weakly
AGGACAATTGTCAGACAATCTAACAAGCGGCGGACAGAACGAAGATAAATACGAGGACTTCCC (double strand) [alkB2-b2],binding result,[1]; [3],binds
same,binding result,[1]; [4],binds more weakly
same,binding result,[1]; [5],binds more weakly
ACGTCATGGTGATCCTTTTATCCAGGGGCGCGTTTTCCGGGGGTATATGGATGGGAAGTGTAACACAGGGCGTTACCCCGCCGGCTTCCCGGCGAAGCGGCGGACAGAACGAAGGTTGGGATGGGGCAGGCCGGCCAAGGGAGGACAATTGTCAGACAATCTAACAAGATAAATACGAGGACTTCCC (double strand) [alkB2-U187],binding result,[2],binds
AGGACAATTGTCAGACAATCTAACAGCCGGCCAAGGGAGATAAATACGAGGACTTCCC (double strand) [alkB2-b4],binding result,[1],binds more weakly

# Source: PMC6422896, “CrgA Protein Represses AlkB2 Monooxygenase and Regulates the Degradation of Medium-to-Long-Chain n-Alkanes in Pseudomonas aeruginosa SJTD-1” (Frontiers in Microbiology, 2019)
